Pooled drug test results. Numbers come from NIAID ChemDB, via PubChem.

All rows: tests on isolated targets; organism: HIV-1; target: Reverse transcriptase; read-out: inhibition

Inhibition is in % at the dose shown (toxicity tests: loss of growth or viability).

smiles | strain or isolate | method | dose | result
C=C(C)OC(=O)N1c2ccc([N+](=O)[O-])cc2C=CC1C#N | - | nucleotide incorporation | 50 µM | ≤30%
CCCN1C(=O)c2cc(Cl)nnc2Oc2ccc(OC)cc21 | - | ELISA | 33 µM | 23%
CCCN1c2ccc(C)cc2N(CC)C(=O)c2ccnnc21 | - | - | 33 µM | 30%
CSc1ncccc1C(=O)N1c2ccccc2C=CC1C#N | - | nucleotide incorporation | 50 µM | ≤30%
CCOc1ccc2nc(NC(=O)NCCc3ccccc3)sc2c1 | - | nucleotide incorporation | 10 µg/mL | 8%
CCOC(=O)CN1C(=O)c2ccnnc2Oc2c(C)cc(C)cc21 | - | ELISA | 33 µM | 18%
Nc1ncnc2c1ncn2[C@@H]1O[C@H](COP(=O)([O-])O[C@@H]2C[C@@H](COP(=O)([O-])O[C@@H]3C[C@@H](COP(=O)([O-])O)O[C@H]3n3cnc4c(N)ncnc43)O[C@H]2n2cnc3c(N)ncnc32)[C@@H](O)[C@H]1O | IIIB | - | 10 µM | 18%
CC(Br)C(=O)N1c2ccccc2C=CC1C#N | - | nucleotide incorporation | 50 µM | ≤30%
CCCN1C(=O)c2ccnnc2Oc2c(C)cc(C)cc21 | - | ELISA | 330 µM | 92%
O=C(NCCc1ccccc1)Nc1nc2ccc(Cl)cc2s1 | - | nucleotide incorporation | 1 µg/mL | 18%
C/C1=C\C=C\C2(C)C=C(CO)C(C)CC23OC([O-])C(C3=O)C(O)/C=C/C2(C)C=C(C=O)C(C)CC23OC([O-])C(C3=O)C(O)/C(C)=C/C=C/C2C=C(CO)C(C)CC23OC([O-])C(C3=O)C(O)/C=C/C2(C)C=C(C=O)C(C)CC23OC([O-])C(C3=O)C1O | IIIB | RT activity | 0.16 µg/mL | 36.7%
Nc1ncnc2c1ncn2C1OC(COP(=O)(O)OC2CC(COP(=O)(O)OC3CC(CO)OC3n3cnc4c(N)ncnc43)OC2n2cnc3c(N)ncnc32)CC1O | IIIB | - | 10 µM | 15%
CCOC(=O)N1c2ccccc2C=CC1C(N)=O | - | nucleotide incorporation | 50 µM | ≤30%
O=C(NCCc1ccccc1)Nc1nc2ccccc2s1 | - | nucleotide incorporation | 0.1 µg/mL | 39%
Nc1ncnc2c1ncn2[C@@H]1O[C@H](COP(=O)([O-])O)[C@@H](O)[C@H]1OP(=O)([O-])OC[C@H]1O[C@@H](n2cnc3c(N)ncnc32)[C@H](OP(=O)([O-])OC[C@@H]2C[C@@H](O)[C@H](n3cnc4c(N)ncnc43)O2)[C@@H]1O | IIIB | - | 10 µM | 19%
CCCCN1C(=O)c2cc(Cl)nnc2N(C2CC2)c2ccccc21 | - | - | 33 µM | 1%
N#CC1C=Cc2ccccc2N1C(=O)OCCCl | - | nucleotide incorporation | 50 µM | ≤30%
Cc1nnc(NC(=O)NCCc2ccccc2)s1 | - | nucleotide incorporation | 0.1 µg/mL | 1%
COc1ccc2c(c1)C=CC(C#N)N2C(=O)c1ccccc1 | - | nucleotide incorporation | 50 µM | 36.7%
CCOC(=O)CN1C(=O)c2ccnnc2Oc2ccccc21 | - | ELISA | 33 µM | 22%
CCOc1ccccc1CCNC(=S)Nc1nccs1 | - | nucleotide incorporation | 0.1 µg/mL | 12%
Nc1ncnc2c1ncn2C1OC(COP(=O)(O)OC2C(O)C(COP(=O)(O)OC3CC(CO)OC3n3cnc4c(N)ncnc43)OC2n2cnc3c(N)ncnc32)CC1O | IIIB | - | 10 µM | 14%
O=C1NC(c2c[nH]c3ccccc23)=C/C1=C1\C(=O)NC2C=CC=CC12 | - | RT activity / ELISA | 750 µM | 14.37%
CCCN1c2ccccc2N(C)C(=O)c2ccnnc21 | - | - | 33 µM | 36%
N#CC1C=Cc2ccccc2N1C(=O)c1ccccc1S | - | nucleotide incorporation | 50 µM | ≤30%
CN1C(=O)c2ccnnc2N(C2CC2)c2ccccc21 | - | - | 33 µM | 26%
N#CC1C=Cc2ccccc2N1C(=O)c1cccnc1Cl | - | nucleotide incorporation | 50 µM | ≤30%

A second listing of 4 rows from above:

smiles	strain or isolate	method	dose	result
CCOc1ccccc1CCNC(=S)Nc1nccs1	-	nucleotide incorporation	0.1 µg/mL	12%
COc1ccc2c(c1)C=CC(C#N)N2C(=O)c1ccccc1	-	nucleotide incorporation	50 µM	36.7%
O=C1NC(c2c[nH]c3ccccc23)=C/C1=C1\C(=O)NC2C=CC=CC12	-	RT activity / ELISA	750 µM	14.37%
O=C(NCCc1ccccc1)Nc1nc2ccccc2s1	-	nucleotide incorporation	0.1 µg/mL	39%

Blank or dashed fields: not listed here. Conditions beyond the fields shown may differ between rows.